Results: patent publication US7482149B2 (priority 2003, dated 2009)

Test system: SARS-CoV
Type: cell-based

| Molecule | Inhibition of Cytopathic Effect | inhibition of CPE |
| --- | --- | --- |
| Interferon α2a: Interferon α2a (Roferon), Roche, clinically approved interferon | No | slight, incomplete inhibition |
| Interferon β1a: Interferon β1a (Rebif), Serono (protein, UniProt P01574 22-187, looked up) Interferon beta: MSYNLLGFLQRSSNFQCQKLLWQLNGRLEYCLKDRMNFDIPEEIKQLQQFQKEDAALTIYEMLQNIFAIFRQDSSSTGWNETIVENLLANVYHQINHLKTVLEEKLEKEDFTRGKLMSSLHLKRYYGRILHYLKAKEYSHCAWTIVRVEILRNFYFINRLTGYLRN | No | slight inhibition |
